# Experimental data: PubChem BioAssay AID624099 (ICCB-Longwood, 2012)
# Test: 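Knock-downs relieving repression by E2 of an HPV18 LCR luciferase reporter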 (primary screen)
# System: human C33A cervical carcinoma cells (HPV-negative) stably expressing BPV1 E2 and an HPV18 LCR luciferase reporter
# Reagent: siRNA pool against human genes, 40 nM
# Timing: 72 h
# Read-out: 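HPV18 LCR reporter light per well, converted to plate-wise z-scores that exclude control wells, and averaged over triplicate plates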
# Reading the numbers: mean z-score and z-score: higher = stronger reporter signal, weaker E2 silencing
# Call rule: 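Hit if mean z-score reaches 2 and two or more of three replicate z-scores also reach 2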
# The whole screen tested about 21,000 reagents; shown is a random part of them. 497 of them (2.4%) count as active. 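Higher z means weaker E2 silencing; only reporter increases were scored, and knock-downs that hurt cell survival may mask genuine repressor factors.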 Reagents against one gene are numbered here. No sequences are given here.
gene,pool no.,mean z-score,"z-score, replicate A","z-score, replicate B","z-score, replicate C",call
MAPKAPK3 (GeneID 7867),1,0.99,0.9,0.97,1.11,inactive
BLTP3A (GeneID 54887),1,0.4,0.67,0.43,0.1,inactive
L2HGDH (GeneID 79944),1,0.99,0.85,1.25,0.86,inactive
SHC2 (GeneID 25759),1,-0.42,-0.67,-0.47,-0.14,inactive
RUNX2 (GeneID 860),1,-0.05,0.1,-0.18,-0.09,inactive
NAV1 (GeneID 89796),1,0.81,0.78,0.82,0.83,inactive
PRR4 (GeneID 11272),1,1.51,1.56,1.6,1.38,inactive
RALGAPB (GeneID 57148),1,0.7,0.91,0.6,0.59,inactive
EEF2 (GeneID 1938),1,-1.13,-1.15,-1.11,-1.13,inactive
IFNA21 (GeneID 3452),1,-1.85,-1.77,-2.01,-1.79,inactive
FLJ45478 (retired record) (GeneID 401534),1,-0.25,-0.23,-0.26,-0.27,inactive
ARL4D (GeneID 379),1,0.16,0.16,-0.01,0.32,inactive
SLC39A8 (GeneID 64116),1,0.44,0.76,0.22,0.34,inactive
GXYLT1 (GeneID 283464),1,0.42,0.35,0.45,0.46,inactive
PDCD2L (GeneID 84306),1,0.21,0.03,0.3,0.32,inactive
CCNA1 (GeneID 8900),1,0.14,-0.08,0.18,0.31,inactive
IQUB (GeneID 154865),1,1.53,1.14,2.1,1.34,inactive
PCDHGA11 (GeneID 56105),1,-0.86,-1.1,-1.16,-0.33,inactive
TYK2 (GeneID 7297),1,0.14,0.17,0.18,0.09,inactive
TMEM9B (GeneID 56674),1,0.36,0.12,0.62,0.34,inactive
CHPF (GeneID 79586),1,0.02,0.17,0.19,-0.3,inactive
MYOM2 (GeneID 9172),1,-0.49,-0.22,-0.79,-0.45,inactive
LOC402697 (retired record) (GeneID 402697),1,0.12,-0.32,0.08,0.59,inactive
CT45A2 (GeneID 728911),1,-1.04,-1.53,-0.6,-0.98,inactive
MAGIX (GeneID 79917),1,-0.31,-0.13,-0.33,-0.46,inactive
LOC402695 (retired record) (GeneID 402695),1,-0.54,-0.32,-0.56,-0.74,inactive
KRTAP4-12 (GeneID 83755),1,-0.23,-0.62,0.03,-0.09,inactive

9 entries from above, showing only “z-score, replicate B”.
GXYLT1 (GeneID 283464): 0.45
PDCD2L (GeneID 84306): 0.3
CCNA1 (GeneID 8900): 0.18
IQUB (GeneID 154865): 2.1
PCDHGA11 (GeneID 56105): -1.16
TYK2 (GeneID 7297): 0.18
TMEM9B (GeneID 56674): 0.62
CHPF (GeneID 79586): 0.19
MYOM2 (GeneID 9172): -0.79

The results go on.
gene,pool no.,mean z-score,"z-score, replicate A","z-score, replicate B","z-score, replicate C",call
IL4I1 (GeneID 259307),1,0.52,0.65,0.1,0.83,inactive
THEMIS2 (GeneID 9473),1,1.43,1.29,1.24,1.75,inactive
MARVELD3 (GeneID 91862),1,1.21,1.26,0.69,1.67,inactive
CCAR1 (GeneID 55749),1,-0.96,-1.21,-1.25,-0.42,inactive
ATXN8OS (GeneID 6315),1,-0.06,-0.35,-0.15,0.32,inactive
GNB3 (GeneID 2784),1,0.54,0.67,0.67,0.29,inactive
FLNB (GeneID 2317),1,-1.23,-0.89,-1.53,-1.26,inactive
TRMT61A (GeneID 115708),1,-0.25,-0.43,-0.25,-0.09,inactive
ABCD4 (GeneID 5826),1,1.54,1.52,1.72,1.38,inactive
SCAMP1 (GeneID 9522),1,-0.4,-0.39,-0.53,-0.29,inactive
C1QL1 (GeneID 10882),1,-0.39,-0.36,-0.33,-0.49,inactive
PRKAR1B (GeneID 5575),1,1.02,1.28,0.78,1.01,inactive
ZNF836 (GeneID 162962),1,0.14,0.17,0.18,0.06,inactive
LOC729698 (retired record) (GeneID 729698),1,0.22,0.14,0.24,0.28,inactive
LOC729698 (retired record) (GeneID 729698),2,0.11,0.11,-0.44,0.65,inactive
LOC729698 (retired record) (GeneID 729698),3,0.05,0.15,-0.04,0.04,inactive
LOC729698 (retired record) (GeneID 729698),4,0.55,0.77,0.25,0.63,inactive
LOC729698 (retired record) (GeneID 729698),5,-0.12,0.15,-0.07,-0.43,inactive
LOC729698 (retired record) (GeneID 729698),6,0.46,0.56,0.24,0.58,inactive
RGS10 (GeneID 6001),1,0.37,0.46,0.18,0.48,inactive
DPYSL3 (GeneID 1809),1,-0.03,-0.41,0.16,0.16,inactive
CEACAM5 (GeneID 1048),1,0.18,0.39,0.41,-0.26,inactive
LGALS14 (GeneID 56891),1,1.59,1.28,1.77,1.7,inactive
OR6C75 (GeneID 390323),1,-0.2,-0.47,-0.18,0.06,inactive
H4C6 (GeneID 8361),1,-0.44,-0.65,-0.48,-0.2,inactive
B4GALNT1 (GeneID 2583),1,0.48,0.2,0.64,0.6,inactive
CD160 (GeneID 11126),1,0.36,0.42,0.08,0.57,inactive
DCD (GeneID 117159),1,-0.96,-1.02,-1.06,-0.79,inactive
LOC388735 (retired record) (GeneID 388735),1,0.06,-0.78,0.25,0.71,inactive
SIX6 (GeneID 4990),1,1.13,1.46,1.08,0.86,inactive
ZNF695 (GeneID 57116),1,-0.57,-0.96,-0.45,-0.3,inactive
NHS (GeneID 4810),1,-0.21,-0.09,-0.04,-0.49,inactive
FAM30A (GeneID 9834),1,4.86,4.7,5.18,4.69,active
CRYBB2 (GeneID 1415),1,-1.15,-1.09,-1.12,-1.24,inactive
ESPNL (GeneID 339768),1,-1.13,-0.93,-1.24,-1.21,inactive
PPP4C (GeneID 5531),1,-0.55,-0.98,-0.6,-0.08,inactive
DGAT2L6 (GeneID 347516),1,-0.27,-0.32,-0.07,-0.42,inactive
LOC389369 (retired record) (GeneID 389369),1,-0.95,-0.76,-1.05,-1.05,inactive
AWAT2 (GeneID 158835),1,0.16,1.01,-0.32,-0.21,inactive
SMIM19 (GeneID 114926),1,-0.74,-0.93,-0.72,-0.57,inactive
LOC401500 (retired record) (GeneID 401500),1,-0.37,-0.21,-0.64,-0.25,inactive
ST6GAL1 (GeneID 6480),1,-0.51,-0.75,-0.31,-0.47,inactive
LOC388278 (retired record) (GeneID 388278),1,-0.54,-0.81,-0.68,-0.15,inactive
GABRQ (GeneID 55879),1,-1.8,-1.85,-1.63,-1.93,inactive
CEND1 (GeneID 51286),1,-0.91,-0.55,-1.11,-1.08,inactive
PCDHB1 (GeneID 29930),1,-0.01,0.04,0.26,-0.33,inactive
